# Positions that govern dimerization of the HIV-1 5' RNA

The 5' region of HIV-1 NL4-3 RNA (positions 1-437):
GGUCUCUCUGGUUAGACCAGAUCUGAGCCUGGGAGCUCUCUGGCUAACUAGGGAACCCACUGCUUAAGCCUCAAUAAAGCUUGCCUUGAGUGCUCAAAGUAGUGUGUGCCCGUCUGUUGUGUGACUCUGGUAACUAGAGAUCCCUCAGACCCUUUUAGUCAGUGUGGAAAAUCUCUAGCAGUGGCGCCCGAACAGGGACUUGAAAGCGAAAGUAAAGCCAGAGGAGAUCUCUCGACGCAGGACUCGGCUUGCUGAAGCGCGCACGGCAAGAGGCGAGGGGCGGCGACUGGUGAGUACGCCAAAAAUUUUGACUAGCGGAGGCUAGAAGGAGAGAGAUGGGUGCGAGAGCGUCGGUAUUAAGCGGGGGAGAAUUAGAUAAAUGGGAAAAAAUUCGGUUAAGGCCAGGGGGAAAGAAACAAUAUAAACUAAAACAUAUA

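Mutant RNA libraries with 1G, 2G or 3G starts, with or without cap, were folded at 37 °C for 30 min. Monomer and dimer bands were cut from native gels after folding in high salt (300 mM KCl, 5 mM MgCl2) or low salt (40 mM KCl, 0.1 mM MgCl2). Kdimer compares mutation frequencies in monomer and dimer, corrected for sequencing errors.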

Scale: median log2 Kdimer over the changes at a position; positive = changes inhibit dimerization, negative = changes enhance it.
Sample: 1G uncapped low-salt.
One numbering serves 1G, 2G and 3G.
A position is written with its base where known.

{"position": "G25", "domain": "TAR", "1G uncapped low-salt": -0.41}
{"position": "G31", "domain": "TAR", "1G uncapped low-salt": -0.27}
{"position": "C38", "domain": "TAR", "1G uncapped low-salt": -0.11}
{"position": "U49", "domain": "TAR", "1G uncapped low-salt": 0.05}
{"position": "A54", "domain": "TAR", "1G uncapped low-salt": -0.41}
{"position": "A59", "domain": "PolyA", "1G uncapped low-salt": 0.26}
{"position": "U65", "domain": "PolyA", "1G uncapped low-salt": 0.18}
{"position": "A67", "domain": "PolyA", "1G uncapped low-salt": 0.03}
{"position": "A77", "domain": "PolyA", "1G uncapped low-salt": 0.03}
{"position": "U100", "domain": "PolyA", "1G uncapped low-salt": 0.11}
{"position": "G108", "domain": "U5", "1G uncapped low-salt": -0.14}
{"position": "G116", "domain": "none", "1G uncapped low-salt": -0.33}
{"position": "U117", "domain": "none", "1G uncapped low-salt": -0.15}
{"position": "U126", "domain": "PAS", "1G uncapped low-salt": 0.31}
{"position": "U128", "domain": "PAS", "1G uncapped low-salt": 0.44}
{"position": "G129", "domain": "PAS", "1G uncapped low-salt": 0.74}
{"position": "A136", "domain": "PBS", "1G uncapped low-salt": -0.06}
{"position": "U153", "domain": "PBS", "1G uncapped low-salt": 0.04}
{"position": "U154", "domain": "PBS", "1G uncapped low-salt": -0.06}
{"position": "C160", "domain": "PBS", "1G uncapped low-salt": -0.23}
{"position": "G167", "domain": "PBS", "1G uncapped low-salt": 0.15}
{"position": "U182", "domain": "PBS", "1G uncapped low-salt": 0.15}
{"position": "C188", "domain": "PBS", "1G uncapped low-salt": 0.22}
{"position": "C189", "domain": "PBS", "1G uncapped low-salt": 0.25}
{"position": "A192", "domain": "PBS", "1G uncapped low-salt": 0.04}
{"position": "U200", "domain": "PBS", "1G uncapped low-salt": 0.04}
{"position": "A204", "domain": "PBS", "1G uncapped low-salt": -0.11}
{"position": "C207", "domain": "PBS", "1G uncapped low-salt": -0.35}
{"position": "A214", "domain": "PBS", "1G uncapped low-salt": -0.10}
{"position": "G226", "domain": "none", "1G uncapped low-salt": -0.67}
{"position": "G234", "domain": "none", "1G uncapped low-salt": -0.16}
{"position": "G237", "domain": "none", "1G uncapped low-salt": 0.66}
{"position": "U253", "domain": "SL1", "1G uncapped low-salt": 2.14}
{"position": "C262", "domain": "SL1", "1G uncapped low-salt": 3.46}
{"position": "C267", "domain": "SL1", "1G uncapped low-salt": 3.42}
{"position": "A269", "domain": "SL1", "1G uncapped low-salt": 1.60}
{"position": "A271", "domain": "SL1", "1G uncapped low-salt": -0.34}
{"position": "C284", "domain": "SL2", "1G uncapped low-salt": 0.54}
{"position": "C287", "domain": "SL2", "1G uncapped low-salt": -0.61}
{"position": "G292", "domain": "SL2", "1G uncapped low-salt": -0.12}
{"position": "G298", "domain": "SL2", "1G uncapped low-salt": -0.53}
{"position": "A305", "domain": "none", "1G uncapped low-salt": -0.18}
{"position": "U313", "domain": "SL3", "1G uncapped low-salt": 1.63}
{"position": "C316", "domain": "SL3", "1G uncapped low-salt": 0.37}
{"position": "G320", "domain": "SL3", "1G uncapped low-salt": -0.13}
{"position": "G328", "domain": "none", "1G uncapped low-salt": -0.09}
{"position": "G329", "domain": "none", "1G uncapped low-salt": -0.09}
{"position": "A334", "domain": "AUG", "1G uncapped low-salt": 0.35}
{"position": "A347", "domain": "none", "1G uncapped low-salt": 0.53}
{"position": "G348", "domain": "none", "1G uncapped low-salt": -0.43}
{"position": "U351", "domain": "none", "1G uncapped low-salt": 0.05}
{"position": "U355", "domain": "none", "1G uncapped low-salt": 0.29}
{"position": "A370", "domain": "none", "1G uncapped low-salt": -0.04}
{"position": "G375", "domain": "none", "1G uncapped low-salt": -0.08}
{"position": "A376", "domain": "none", "1G uncapped low-salt": -0.27}
{"position": "G382", "domain": "none", "1G uncapped low-salt": 0.16}
{"position": "G384", "domain": "none", "1G uncapped low-salt": -0.06}
{"position": "A385", "domain": "none", "1G uncapped low-salt": -0.34}
{"position": "U391", "domain": "none", "1G uncapped low-salt": -0.07}
{"position": "G405", "domain": "none", "1G uncapped low-salt": -0.15}
{"position": "G413", "domain": "none", "1G uncapped low-salt": -0.01}
{"position": "A421", "domain": "none", "1G uncapped low-salt": 0.02}
{"position": "U422", "domain": "none", "1G uncapped low-salt": 0.00}
{"position": "A424", "domain": "none", "1G uncapped low-salt": 0.09}
{"position": "A425", "domain": "none", "1G uncapped low-salt": 0.06}
{"position": "442", "domain": "none", "1G uncapped low-salt": 0.09}
{"position": "450", "domain": "none", "1G uncapped low-salt": 0.04}
{"position": "471", "domain": "none", "1G uncapped low-salt": -0.02}
{"position": "497", "domain": "none", "1G uncapped low-salt": 0.03}
{"position": "506", "domain": "none", "1G uncapped low-salt": -0.14}

Bases beyond 437 are not listed in the source.

The measurements come from Ye et al. 2022 (doi:10.1038/s41594-022-00746-2).